From patent US20160152689, “Compositions and methods for inhibiting thrombogenesis” (published 2016) come the findings set out here.

Assay [1] addresses Factor XIa (FXIa), human, human, P03951 19-625. Description: cell-based or functional assay.
Assay [2] deals with plasmin, not stated, P00747 97-810. The assay can be described thus: enzyme kinetics, dose-dependent inhibition with chromogenic substrate.
The target in assay [3] is Factor Xa (FXa), not stated, P00742 41-179; P00742 235-488. The assay is described as above.
Assay [4] has as its target kallikrein, not stated, P03952 20-638. The assay is described as above.
Another assay concerns the target trypsin, not stated. The description is as above.
Assay [5] has as its target Factor VIIa (FVIIa), not stated, P08709 61-466. The description is as above.

As for rFasxiatorN17K (BF01 N(17)K), in assay [1], the IC50, FXIa inhibition, 40 min incubation was 2.96 nM.

Substance rFasxiatorN17R (BF01 N(17)R) showed an IC50, FXIa inhibition, 40 min incubation in assay [1] of 0.94 nM.

What is called Ki is a dissociation constant, usually derived from enzyme kinetics or from competition with a known ligand. Low values mean a stronger hold on the target, high ones a looser hold on the target. In assay [1], rFasxiatorN17R,L19E (BF01 N(17)R, L19E) registered an IC50, FXIa inhibition, 40 min incubation of 1.26 nM. Moreover, the Ki in assay [2] was found to be 146 nM; in assay [3], 718 nM; in assay [4], 5300 nM; with trypsin, not stated, 9.7 nM; in assay [5] it was 693 nM.
